Assay [1] deals with H1N1 A/California/07/2009 hemagglutinin ectodomain, biotinylated HA0 (influenza A virus A/California/07/2009 …, biotin on the BirA site). The assay can be described thus: SPR. Background: SPR reads the build-up and loss of mass on a sensor chip optically.
In assay [2] the target is H1N1 A/New Caledonia/20/1999 hemagglutinin ectodomain, biotinylated HA0 (influenza A virus A/New …, biotin on the BirA site). The assay can be described thus: SPR.

The source of these data is paper PMC12714728 (2025).

B1: cyclic peptide CP13 (peptide)
peptide: CYRDPLGVAGEMC
modifications: disulfide between the two Cys (sidechain-sidechain cyclization)
In the case of B1, the results for the koff in assay [1] and in assay [2] were 1.49 s⁻¹ and 0.81 s⁻¹, respectively.

As usually defined, the koff is the first-order rate constant of dissociation.
